Test results as given in article PMC6242908.

By UniProt entry, the sequences of proteins in these tests, tags left out. Where a name states a change or a piece, a line headed by the entry shows the natural chain unless it says otherwise.
UniProt Q57YK5: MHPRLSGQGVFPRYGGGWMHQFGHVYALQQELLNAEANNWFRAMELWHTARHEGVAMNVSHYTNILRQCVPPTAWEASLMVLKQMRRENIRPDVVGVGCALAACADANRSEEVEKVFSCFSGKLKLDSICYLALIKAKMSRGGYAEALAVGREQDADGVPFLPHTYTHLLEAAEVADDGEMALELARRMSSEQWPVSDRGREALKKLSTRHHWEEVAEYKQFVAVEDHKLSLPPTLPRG

How the values were obtained:
[1] = molecular target: MBP-KRIPP11-His6 (Trypanosoma brucei) (UniProt Q57YK5); assay: FRET; details: 50 nM RNA, TAMRA emission rises with protein, quadruplex not disrupted; recombinant protein; protein details: N-terminal MBP with TEV site, C-terminal His6
[2] = molecular target: MBP-KRIPP11-His6 (Trypanosoma brucei) (UniProt Q57YK5); assay: EMSA; details: EMSA: same buffer with BSA and RNAsin, 150 nM RNA/DNA, 2% tris-glycine agarose, recombinant protein, protein details: N-terminal MBP with TEV site, C-terminal His6, label: 5'-fluorescein
[3] = molecular target: MBP-KRIPP11-His6 (Trypanosoma brucei) (UniProt Q57YK5); assay: fluorescence anisotropy; details: FA: 20 mM Tris-HCl pH 7.5, 150 mM KCl, 5 mM MgCl2, 1 mM DTT, 20 nM RNA/DNA, 25 C, recombinant protein, protein details: N-terminal MBP with TEV site, label: 5'-fluorescein

Sequence	binding result ([2]; up to 12 uM protein)	binding result ([3]; no substantial saturable shift)	other results
GGGGGGGGGGGG / GGGGGGGGGGGG [5'-FLUO-G12/G12-TAMRA-3' annealed]			binding result [1]: binds
GGGGGGGGGGGG [dG12]			binding result ([2]; shift only at higher protein, DNA, single-stranded DNA): binds more weakly
GGGGGGGGG [G9 RNA]			binding result ([2]; intense shifted band): binds
GGGGGGGGGGGG (double strand) [(G.C)12]			binding result [2]: no binding
GGGGGGGGGGGG [G12 RNA (native)]	binds		
UUUUUUUUUUUU [U12 RNA]	no binding	no binding	
AAAAAAAAAAAA [A12 RNA]	no binding	no binding	
GGGGGG [G6 RNA]			binding result ([2]; no stable complex, although FA shows binding): no binding
CCCCCCCCCCCC [C12 RNA]	no binding	no binding	
GGGGGGGGGGGG [G12 RNA, thermally denatured]			binding result ([3]; 95 C then snap cooled, isotherm did not saturate): binds more weakly

The exact form of at least one protein or probe is not confirmed. For some of these results: Negatives hold for the conditions tested. For some of these results: At least one verdict rests on a figure or table, not on a statement of the authors. For some of these results: The comparison behind a weaker result is the experiment's own reference, which may not be listed here.
